Data source: PubChem BioAssay AID624099 (ICCB-Longwood, 2012)

- Assay: 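Knock-downs relieving repression by E2 of an HPV18 LCR luciferase reporter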 (primary screen)
- System: human C33A cervical carcinoma cells (HPV-negative) stably expressing BPV1 E2 and an HPV18 LCR luciferase reporter
- Reagent: siRNA pool against human genes, 40 nM
- Timing: 72 h
- Read-out: 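HPV18 LCR reporter light per well, converted to plate-wise z-scores that exclude control wells, and averaged over triplicate plates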
- Scale: mean z-score and z-score: higher = stronger reporter signal, weaker E2 silencing
- Active means: 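Hit if mean z-score reaches 2 and two or more of three replicate z-scores also reach 2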
This is one part, drawn at random, of about 21,000 deposited reagents. Of all reagents, 497 (2.4%) are marked active. 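Higher z means weaker E2 silencing; only reporter increases were scored, and knock-downs that hurt cell survival may mask genuine repressor factors.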 Entries without a mark were called inactive. The numbers tell different reagents against one gene apart. No sequences are given here.

| gene | reagent | mean z-score | z-score, replicate A | z-score, replicate B | z-score, replicate C |
| --- | --- | --- | --- | --- | --- |
| PIK3CD | 1 | -1.42 | -1.66 | -1.4 | -1.2 |
| MGAM2 | 1 | 1.85 | 1.95 | 1.69 | 1.9 |
| CHRNA5 | 1 | -0.92 | -0.98 | -1.06 | -0.73 |
| OR2A2 | 1 | -1.73 | -1.95 | -2.03 | -1.21 |
| NLRP3 | 1 | -0.36 | -0.24 | -0.33 | -0.52 |
| ZNF227 | 1 | -0.29 | -0.21 | -0.51 | -0.15 |
| NUCKS1 | 1 | 0.9 | 1.12 | 0.97 | 0.62 |
| TPPP | 1 | 0.63 | 0.55 | 0.58 | 0.76 |
| CLCNKB | 1 | 1.11 | 0.87 | 1.1 | 1.37 |
| COL4A2 | 1 | 0.46 | 0.56 | 0.56 | 0.26 |
| DMKN | 1 | 2.38 (active) | 3.2 | 2.09 | 1.85 |
| TRAFD1 | 1 | 1.6 | 1.31 | 1.85 | 1.63 |
| APOBR | 1 | -0.66 | -0.55 | -0.81 | -0.61 |
| KLK6 | 1 | -0.58 | -0.59 | -0.46 | -0.68 |
| OSBPL6 | 1 | -1.8 | -1.93 | -1.46 | -2.01 |
| NIFK | 1 | 0.11 | 0.32 | 0.34 | -0.33 |
| ECM1 | 1 | 2.05 | 2.58 | 1.65 | 1.93 |
| SWAP70 | 1 | 0.09 | 0.01 | 0.24 | 0.03 |
| EIF2A | 1 | -0.52 | -0.58 | -0.26 | -0.72 |
| RPAP2 | 1 | 0.87 | 1.08 | 1.08 | 0.44 |
| PAFAH1B3 | 1 | 0.16 | -0.24 | 0.24 | 0.49 |
| CDK8 | 1 | 0.27 | -0.05 | 0.25 | 0.6 |
| FNDC5 | 1 | 0 | 0.36 | -0.11 | -0.25 |
| BMP1 | 1 | 0.68 | 0.85 | 0.92 | 0.26 |
| ATP6AP2 | 1 | -0.55 | -0.74 | -0.56 | -0.35 |
| ST6GALNAC4 | 1 | -0.64 | -0.63 | -0.7 | -0.59 |
| TRIM11 | 1 | -0.95 | -1.02 | -0.96 | -0.87 |
| ITM2B | 1 | -0.43 | -0.3 | -0.4 | -0.59 |
| PCSK1 | 1 | 0.48 | 0.48 | 0.26 | 0.69 |
| LOC400740 (retired record) | 1 | 2.2 (active) | 2.39 | 2.08 | 2.11 |
| OTUD7A | 1 | -0.14 | -0.09 | -0.19 | – |
| PIGZ | 1 | 0.79 | 0.62 | 0.75 | 1.01 |
| CTSZ | 1 | -0.26 | -0.3 | -0.15 | -0.33 |
| PICK1 | 1 | 0.33 | 0.19 | 0.15 | 0.67 |
| EIF2B3 | 1 | -0.52 | -0.74 | -0.48 | -0.34 |
| BYSL | 1 | -1.27 | -1.56 | -1.17 | -1.08 |
| EML4 | 1 | 0.48 | 0.47 | 0.29 | 0.68 |
| CREBZF | 1 | -0.13 | -0.11 | -0.1 | -0.18 |
| TXLNGY | 1 | 0.5 | 0.52 | 0.5 | 0.49 |
| TXLNGY | 2 | 0.03 | -0.04 | -0.22 | 0.36 |
| PDZD9 | 1 | -0.95 | -1.1 | -0.66 | -1.08 |
| HAO2 | 1 | 0.28 | 0.12 | 0.55 | 0.19 |
| SLFN11 | 1 | -0.26 | -0.39 | 0 | -0.39 |
| LOC389425 (retired record) | 1 | -4.3 | -4.24 | -4.43 | -4.24 |
| LRRC32 | 1 | -0.07 | 0.19 | -0.16 | -0.25 |
| TUSC3 | 1 | 0.7 | 0.26 | 0.7 | 1.13 |
| XRRA1 | 1 | -0.5 | -0.55 | -0.61 | -0.35 |
| LRRC37A11P | 1 | -0.24 | -0.38 | -0.11 | -0.22 |
| RAB24 | 1 | 0.38 | 0.37 | 0.36 | 0.4 |
| PLD3 | 1 | -0.26 | -0.17 | -0.42 | -0.18 |
| GAS2L3 | 1 | 0.18 | 0.26 | 0.34 | -0.07 |
| APOBEC3F | 1 | 0.16 | 0.18 | 0.26 | 0.03 |
| ZNF689 | 1 | 0.45 | 0.23 | 0.48 | 0.64 |
| SHISAL1 | 1 | -0.83 | -1.29 | -0.52 | -0.7 |
| MAP3K12 | 1 | 0.43 | 0.27 | 0.65 | 0.37 |
| PAPLN | 1 | 0.87 | 1 | 0.33 | 1.29 |
| S100A7A | 1 | -1.45 | -1.62 | -1.45 | -1.28 |

A few values from above.
BYSL, z-score, replicate C → -1.08
Value for PCSK1 in “z-score, replicate B”: 0.26
Entry for CTSZ under “z-score, replicate A”: -0.3
